In US11185076B2 (priority 2017, dated 2021):
Where two headings read alike, the source gives them in different places.

Test system: rice leaf blight bacteria (Xanthomonas oryzae pv. oryzae)
Format: in vivo
Conditions: soil drench, 10 days before inoculation

SMILES | Result (control effect) (90 g ai/10a) | Result (control effect) (180 g ai/10a) | Result (control effect) (250 g ai/10a)
CCC1(C(=O)N[C@H](C)c2ccc(Cl)cc2)C(C)C1(Cl)Cl (stereo partly shown) [Carpropamide (e), carpropamid] | B (a control value of 20 or more was evaluated as B (control effect was observed)) | B (a control value of 20 or more was evaluated as B (control effect was observed)) | –
C[C@@H](NC(=O)C(C#N)C(C)(C)C)c1ccc(Cl)cc1Cl (stereo partly shown) [Diclosimette (f), diclocymet] | B (a control value of 20 or more was evaluated as B (control effect was observed)) | A (a control value of 50 or more was evaluated as A (high control effect was observed)) | –
CC(Oc1ccc(Cl)cc1Cl)C(=O)NC(C)(C#N)C(C)C (stereo not shown) [Fenoxanil (g), fenoxanil] | A (a control value of 50 or more was evaluated as A (high control effect was observed)) | A (a control value of 50 or more was evaluated as A (high control effect was observed)) | –
O=C1OCc2c(Cl)c(Cl)c(Cl)c(Cl)c21 [Fthalide (d), fthalide] | – | B (a control value of 20 or more was evaluated as B (control effect was observed)) | –
C=CCOC1=NS(=O)(=O)c2ccccc21 [Probenazole (h), probenazole] | – | – | A (a control value of 50 or more was evaluated as A (high control effect was observed))
O=C1CCc2cccc3c2N1CC3 [Pyroquilon (b), pyroquilon] | B (a control value of 20 or more was evaluated as B (control effect was observed)) | A (a control value of 50 or more was evaluated as A (high control effect was observed)) | –
Cc1ccc(C(=O)NC[C@@H](NC(=O)OCC(F)(F)F)C(C)C)cc1 [Tolprocarb (a), tolprocarb] | B (a control value of 20 or more was evaluated as B (control effect was observed)) | A (a control value of 50 or more was evaluated as A (high control effect was observed)) | –
Cc1cccc2sc3nncn3c12 [Tricyclazole (c), tricyclazole] | – | B (a control value of 20 or more was evaluated as B (control effect was observed)) | –
